The record followed here is PMC11084498.

The exact form of at least one protein or probe is not confirmed.

The test system of data set [1] is OsCAMTA3CG-1-GST. Put plainly: competition EMSA. The conditions noted are these: unlabeled competitor at 1-, 10- or 100-fold reduced binding of Cy5 probe, EMSA: 100 mM Tris-HCl pH 7.5, 100 mM KCl, 50 mM MgCl2, 1 mM DTT, 0.05 mg/mL poly(dI-dC), 20 uL, 4 C, 30 min, 3.5% polyacrylamide, 0.5x TBE, recombinant protein, protein details: GST (pGEX4T-1).
Data set [2] relates to OsCAMTA3CG-1-GST. Briefly: EMSA. Conditions: 50 mM MgCl2, poly(dI-dC), EMSA: 100 mM Tris-HCl pH 7.5, 100 mM KCl, 50 mM MgCl2, 1 mM DTT, 0.05 mg/mL poly(dI-dC), 20 uL, 4 C, 30 min, 3.5% polyacrylamide, 0.5x TBE, recombinant protein, protein details: GST (pGEX4T-1), label: Cy5 end label (on F strand). (In general: Mobility shift assays separate free from complexed probe on a gel.)

For “TCCACTGGGGACGTACGAGCTCCGCGCATCCCTTCCATTCCATTACTGAC (double strand) [OsALDH2B1 unlabeled competitor]”, the binding result in data set [1] was “binds”.
For “TCCACTGGGGACGTACGAGCTCCGCGCATCCCTTCCATTCCATTACTGAC (double strand) [Cy5-OsALDH2B1 probe]”, in data set [2], the binding result is on record as “binds”.
